Pooled drug test results. Numbers come from NIAID ChemDB, via PubChem.

Common to all: target-level tests; species: HIV-1; target: Protease; read by: fluorescence; measure: Ki

An empty or dashed field is not shown. a–b is a range or a potency band. Lines come from different laboratories, so protocols vary.

structure | strain | changes | result
COc1ccccc1CNC(=O)[C@H](OCc1ccccc1)[C@H](O)[C@@H](O)[C@@H](OCc1ccccc1)C(=O)N[C@H]1c2ccccc2C[C@H]1O |  |  | 0.002 µM
CC[C@H](C)[C@H](NC(=O)[C@@H]1CCCN1C[C@H](O)[C@H](Cc1ccccc1)NC(=O)[C@H](CC(N)=O)NC(=O)[C@H](CC(C)C)NC(=O)[C@H](CO)NC(C)=O)C(=O)N[C@H](C(=O)OC)C(C)C |  |  | 0.001 µM
CNC(=O)[C@@H](NC(=O)[C@H](OCc1ccccc1)[C@H](O)[C@@H](O)[C@@H](OCc1ccccc1)C(=O)N[C@H](C(=O)NC)C(C)C)C(C)C |  |  | 0.0006 µM
CCC(c1ccccc1)c1c(O)c2ccccc2oc1=O |  |  | 1 µM
O=C1c2ccccc2C(=O)c2c1ccc(O)c2O |  |  | 12.3 µM
CC(C)[C@H](NC(=O)OCc1ccccc1)C(=O)NN(Cc1ccc(Br)cc1)C[C@@](O)(Cc1ccccc1)C(=O)N[C@H]1c2ccccc2C[C@H]1O |  |  | 0.011–0.05 µM
CC[C@H](C)[C@H](NC(=O)[C@@H]1CCCN1C[C@H](O)[C@H](Cc1ccccc1)NC(=O)[C@H](CC(N)=O)NC(=O)[C@H](CC(C)C)NC(C)=O)C(=O)N[C@H](C(N)=O)C(C)C |  |  | 0.003 µM
O=C1N(Cc2cccc(-c3cn[nH]n3)c2)[C@H](Cc2ccccc2)[C@H](O)[C@@H](O)[C@@H](Cc2ccccc2)N1Cc1cccc(-c2cn[nH]n2)c1 | RF |  | 0.00017 µM
O=C(NCc1ccc(F)cc1F)[C@H](OCc1ccccc1)[C@H](O)[C@@H](O)[C@@H](OCc1ccccc1)C(=O)N[C@H]1c2ccccc2C[C@H]1O |  |  | 0.02 µM
O=C1N(Cc2cccc(CO)c2)[C@H](Cc2ccccc2)[C@H](O)[C@@H](O)[C@@H](Cc2ccccc2)N1Cc1cccc(CO)c1 |  |  | 0.4 µM
CC(C)[C@H](NC(=O)[C@@H](NC(=O)OCc1ccccc1)[C@@H](C)O)C(=O)N[C@@H](Cc1ccccc1)[C@@H](O)[C@H](O)[C@H](Cc1ccccc1)NC(=O)[C@@H](NC(=O)[C@@H](NC(=O)OCc1ccccc1)[C@@H](C)O)C(C)C |  |  | 0.0077 µM
CNC(=O)[C@@H](NC(=O)[C@H](Sc1cccs1)[C@H](O)[C@@H](O)[C@@H](Sc1cccs1)C(=O)N[C@H](C(=O)NC)C(C)C)C(C)C |  |  | 0.0042 µM
CC(C)C[C@H](NC(=O)OCc1ccccc1)C(=O)N[C@H](C(=O)N[C@@H](CC(C)C)[C@@H](O)[C@H](O)[C@H](CC(C)C)NC(=O)[C@@H](NC(=O)[C@H](CC(C)C)NC(=O)OCc1ccccc1)C(C)C)C(C)C |  |  | 0.00087 µM
CC(C)C[C@@H](C=O)NC(=O)[C@H](CCC(=O)O)NC(=O)[C@H](Cc1ccc(O)cc1)NC(=O)CCCc1ccccc1 |  |  | 11 µM
CC(C)[C@H](NC(=O)c1ccc2ccccc2n1)C(=O)N[C@@H](Cc1ccccc1)[C@H](O)CN1CC[C@@H](SCc2cccnc2)C[C@H]1C(=O)NC(C)(C)C |  | PR-I84V | 0.000027 µM
CC(C)(C)OC(=O)N[C@@H](Cc1ccccc1)[C@@H](O)C[C@@H](Cc1ccc(OCCN2CCOCC2)cc1)C(=O)N[C@H]1c2ccccc2C[C@H]1O |  | PR-R8Q | 0.00014 µM
CC[C@H](C)[C@H](NC(C)=O)C(=O)N[C@@H](CO)C(=O)N[C@@H](Cc1ccc(O)cc1)C(=O)N[C@@H](CCC(=O)O)C(=O)N[C@H](C=O)CC(C)C |  |  | 0.6 µM
CC(C)[C@H](NC(=O)N(C)Cc1ccccn1)C(=O)N[C@@H](Cc1ccccc1)[C@H](O)[C@H](O)[C@H](Cc1ccccc1)NC(=O)[C@@H](NC(=O)N(C)Cc1ccccn1)C(C)C |  |  | 0.000084 µM
CCCC(=O)c1cccc(CN2C(=O)N(Cc3cccc(C(=O)CCC)c3)[C@H](Cc3ccccc3)[C@H](O)[C@@H](O)[C@H]2Cc2ccccc2)c1 | RF |  | 0.0014 µM
CC(C)[C@H](NC(=O)N(C)Cc1ccccn1)C(=O)N[C@@H](Cc1ccccc1)[C@H](O)[C@@H](O)[C@H](Cc1ccccc1)NC(=O)[C@@H](NC(=O)N(C)Cc1ccccn1)C(C)C |  |  | 0.000077 µM
CC(C)C[C@H](NC(=O)[C@H](CCC(=O)O)NC(=O)[C@H](Cc1ccc(O)cc1)NC(=O)[C@H](CO)NC(=O)[C@@H](N)Cc1ccccc1)C(=O)O |  |  | 0.6 µM
CC(C)[C@H](NC(=O)c1ccc2ccccc2n1)C(=O)N[C@@H](Cc1ccccc1)[C@H](O)CN1CC[C@@H](OCc2ccncc2)C[C@H]1C(=O)NC(C)(C)C | IIIB |  | 0.000031 µM
CC(C)[C@H](NC(=O)[C@H](C)NC(=O)OCc1ccccc1)C(=O)N[C@@H](Cc1ccccc1)[C@@H](O)C(=O)N1CCC[C@H]1C(=O)NC(C)(C)C |  |  | 0.308 µM
CNC(=O)[C@H](OCc1ccccc1)[C@H](O)[C@@H](O)[C@@H](OCc1ccccc1)C(=O)N[C@H]1c2ccccc2C[C@H]1O |  |  | 0.002 µM
CC(C)CN(C[C@@H](O)[C@H](Cc1ccccc1)NC(=O)[C@@H](NC(=O)CNCc1cccc(F)c1)C(C)(C)C)S(=O)(=O)c1ccc(N)cc1 |  |  | 0.000021 µM
O=C1N(Cc2ccc(CO)cc2)[C@H](COc2ccccc2)[C@H](O)[C@@H](O)[C@@H](COc2ccccc2)N1Cc1ccc(CO)cc1 | IIIB |  | 0.00023 µM
CCCC1(CCc2ccccc2)CC(O)=C(C(CC)c2cccc(NS(=O)(=O)CCC)c2)C(=O)O1 |  |  | >1 µM
CC[C@H](C)[C@H](NC(=O)[C@@H]1CCCN1C[C@@H](O)[C@H](Cc1ccccc1)NC(=O)[C@H](CC(N)=O)NC(=O)[C@H](CC(C)C)NC(=O)[C@H](CO)NC(C)=O)C(=O)N[C@H](C(=O)OC)C(C)C |  |  | 0.013 µM
COC(=O)N[C@H](C(=O)NCCCC[C@@H](CO)N(CC(C)C)S(=O)(=O)c1ccc2c(c1)OCO2)C(c1ccccc1)c1ccccc1 | NL4-3 |  | 0.0016 µM
CC(C)CN(C[C@@H](O)[C@H](Cc1ccccc1)NC(=O)[C@H](CC(N)=O)NC(=O)c1ccc2ccccc2n1)C(=O)NC(C)(C)C |  |  | 0.003 µM
CC(=O)N[C@@H](Cc1ccccc1)C(=O)N[C@@H](CO)C(=O)N[C@H](C(=O)N[C@@H](CCC(=O)O)C(=O)N[C@@H](CC(C)C)C(=O)O)c1ccc(OC(=O)c2ccccc2)cc1 |  |  | 0.4 µM
O=C1N(Cc2cccc(/C=N/O)c2)[C@H](Cc2ccccc2)[C@H](O)[C@@H](O)[C@@H](Cc2ccccc2)N1Cc1cccc(/C=N/O)c1 | RF |  | 0.00001 µM
CC(C)[C@H](NC(=O)N(C)Cc1ccccn1)C(=O)N[C@@H](Cc1ccccc1)[C@H](O)[C@H](O)[C@H](Cc1ccccc1)NC(=O)[C@@H](NC(=O)N(C)Cc1ccccn1)C(C)C |  | PR-R8Q | 0.0027 µM
CC(C)[C@H](NC(=O)[C@H](C)NC(=O)OCc1ccccc1)C(=O)N[C@@H](Cc1ccccc1)[C@H](O)C(=O)N1CCC[C@H]1C(=O)NC(C)(C)C |  |  | 0.0054 µM
Cc1cccc(C)c1OCC(=O)N[C@@H](Cc1ccccc1)[C@H](O)CN1CC[C@@H](Sc2ccncc2)C[C@H]1C(=O)NC(C)(C)C | IIIB |  | 0.0000055 µM
COc1cc(CN2C(=O)N(Cc3cccc(C(=O)Nc4cccc(C)n4)c3)[C@H](Cc3ccccc3)[C@H](O)[C@@H](O)[C@H]2Cc2ccccc2)cc(OC)c1 |  |  | 0.007 µM
COC(=O)N[C@@H](Cc1c[nH]c2ccccc12)C(=O)NCCCC[C@@H](CO)N(CC(C)C)S(=O)(=O)c1ccc(N)cc1 |  |  | 0.0026 µM
CC[C@H](C)[C@@H]1NC(=O)[C@@H](NC[C@@H](O)[C@H](Cc2ccccc2)NC(=O)[C@@H](NC(=O)[C@H](CC(C)C)NC(C)=O)C(C)C)Cc2ccc(cc2)OCCCCNC1=O |  |  | 0.0015 µM
CC(C)[C@H](NC(=O)OCc1ccccc1)C(=O)N[C@@H](Cc1ccccc1)[C@@H](O)[C@H](O)[C@H](Cc1ccccc1)NC(=O)[C@@H](NC(=O)OCc1ccccc1)C(C)C |  |  | 0.0011 µM
COc1ccc(S(=O)(=O)N(C[C@@H](O)[C@H](Cc2ccccc2)NC(=O)O[C@H]2CO[C@H]3OCC[C@H]32)CC(C)(C)CCC#N)cc1 |  |  | <0.001 µM
O=C1N(Cc2cccc(-c3ncn[nH]3)c2)[C@H](Cc2ccccc2)[C@H](O)[C@@H](O)[C@@H](Cc2ccccc2)N1Cc1cccc(-c2ncn[nH]2)c1 | RF |  | 0.000052 µM
CC(C)[C@H](NC(=O)N(C)Cc1ccccn1)C(=O)N[C@@H](Cc1ccccc1)[C@H](O)[C@H](O)[C@H](Cc1ccccc1)NC(=O)[C@@H](NC(=O)N(C)Cc1ccccn1)C(C)C |  | PR-M46I | 0.00012 µM
O=C1N(Cc2cccc(C(=O)C(F)(F)F)c2)[C@H](Cc2ccccc2)[C@H](O)[C@@H](O)[C@@H](Cc2ccccc2)N1Cc1cccc(C(=O)C(F)(F)F)c1 | RF |  | 0.000037 µM
CCC(C)[C@H](NC(=O)CCCCCCCCCCCCCCC(=O)N[C@@H](CC(C)C)C(=O)N[C@@H](CC(N)=O)C(=O)N[C@@H](Cc1ccccc1)C(=O)O)C(=O)N[C@H](C(=O)N[C@@H](CC(C)C)C(=O)N[C@@H](Cc1c[nH]c2ccccc12)C(=O)O)C(C)O |  |  | 0.87 µM

The first 3 rows once more:

| structure | strain | changes | result |
|---|---|---|---|
| COc1ccccc1CNC(=O)[C@H](OCc1ccccc1)[C@H](O)[C@@H](O)[C@@H](OCc1ccccc1)C(=O)N[C@H]1c2ccccc2C[C@H]1O |  |  | 0.002 µM |
| CC[C@H](C)[C@H](NC(=O)[C@@H]1CCCN1C[C@H](O)[C@H](Cc1ccccc1)NC(=O)[C@H](CC(N)=O)NC(=O)[C@H](CC(C)C)NC(=O)[C@H](CO)NC(C)=O)C(=O)N[C@H](C(=O)OC)C(C)C |  |  | 0.001 µM |
| CNC(=O)[C@@H](NC(=O)[C@H](OCc1ccccc1)[C@H](O)[C@@H](O)[C@@H](OCc1ccccc1)C(=O)N[C@H](C(=O)NC)C(C)C)C(C)C |  |  | 0.0006 µM |